What all share (experiment): fold change of IC50 against reference virus; higher = more resistant
Compound in one test: CC(C)Nc1cccnc1N1CCN(C(=O)c2cc3cc(NS(C)(=O)=O)ccc3[nH]2)CC1 [delavirdine]
As for the experimental part:
(§1)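 Cell-culture drug susceptibility tests of virus bearing the reverse transcriptase of each isolate, gathered from many studies.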

Compound in another test: C[C@H](Cn1cnc2c(N)ncnc21)OCP(=O)(O)O [tenofovir]
As for the experimental part: as §1

Compound in the next test: Cc1ccnc2c1NC(=O)c1cccnc1N2C1CC1 [nevirapine]
As for the experimental part:
as §1

Compound in the next test: Cc1cn([C@H]2C=C[C@@H](CO)O2)c(=O)[nH]c1=O [stavudine]
As for the experimental part: as §1

Compound in another test: Cc1cn([C@H]2C[C@H](N=[N+]=[N-])[C@@H](CO)O2)c(=O)[nH]c1=O [zidovudine]
As for the experimental part:
as §1

Compound in another test: Nc1ccn([C@H]2CC[C@@H](CO)O2)c(=O)n1 [zalcitabine]
As for the experimental part:
as §1

Compound in another test: Nc1nc(NC2CC2)c2ncn([C@H]3C=C[C@@H](CO)C3)c2n1 [abacavir]
As for the experimental part: as §1

Compound in a further test: O=C1Nc2ccc(Cl)cc2[C@@](C#CC2CC2)(C(F)(F)F)O1 [efavirenz]
As for the experimental part:
as §1

Compound in a further test: O=c1[nH]cnc2c1ncn2[C@H]1CC[C@@H](CO)O1 [didanosine]
As for the experimental part: as §1

Fold change is the IC50 on the isolate divided by the IC50 on a reference virus; 1 = unchanged, higher = more resistant. Changes are given against the subtype B consensus. No active / inactive call. The values were gathered from many studies (numbered anew) with different assays, which the source does not name. Most viruses are clinical isolates; some are laboratory strains or clones with known resistance changes. Isolates with mixed residues are left out; stretches that were not sequenced show no change. Round top values that many isolates share are read here as limits; other very high values and 0.1 may be limits too.

Consider “HIV-1 isolate 1314 (reverse transcriptase changes: M41L D67N T69D L74V L100I K103N M184V T215Y, study 118)”, for which the “fold change of IC50 against reference virus” value (“fold change of IC50” for short) with delavirdine worked out at 180; in the test with tenofovir it was 0.6; with nevirapine, 98; in the test with stavudine, 1.3; with zidovudine it was 1.3; with zalcitabine, 1.9. Further, the entries for the “fold change of IC50” value with abacavir, with efavirenz and in the test with didanosine were 5.5, 180 and 2.5, respectively.

As to “HIV-1 isolate 1332 (reverse transcriptase changes: E40F M41L K43E D67N K104R V106I T107P V118I M184V Q207E H208Y L210W R211K T215Y A272P K277R, study 121)”, the “fold change of IC50” value with delavirdine came to 0.1; with tenofovir, 1.7; in the test with nevirapine, 0.1; with stavudine, 5.4; with zidovudine it was 59; with zalcitabine it was 3.8. In addition, the “fold change of IC50” value with abacavir was 8.4; in the test with efavirenz it was 0.1; in the test with didanosine, 3.3.

On to “HIV-1 isolate 826 (reverse transcriptase changes: V35I M41L K43Q A62V D67N V75I E79D R83K K122E M184V G196E Q197K L210W T215Y D218E K223Q A272P K277R, study 121)”, for which the “fold change of IC50” value in the test with delavirdine came to 0.1; with tenofovir, 0.9; with nevirapine, 0.3; with stavudine, 2.5; with zidovudine it was 7.1; with zalcitabine, 2.1. Further, the “fold change of IC50” value with abacavir came to 4.9; with efavirenz it was 0.1; with didanosine it was 1.7.

On to “HIV-1 isolate 831 (reverse transcriptase changes: M41L L74V K102Q D123E Y181C I202V R211K T215Y A272P K277R T286A, study 121)”, for which the “fold change of IC50” value was 6.4 with delavirdine; 0.7 with tenofovir; 77 in the test with nevirapine; 1.5 with stavudine; 1.6 with zidovudine; 1.3 in the test with zalcitabine. Further, the “fold change of IC50” value turned out to be 2.5 in the test with abacavir, 0.8 with efavirenz and 1.6 with didanosine.

Take “HIV-1 isolate 1250 (reverse transcriptase changes: V35Q T39A M41L V60I D67N T69N K70R D123E I135T I142V K166R D177E G196E E203D T215F K219E, study 121)”: the “fold change of IC50” value was 1.7 with delavirdine; 8.1 with tenofovir; 3.6 with nevirapine; 2.6 in the test with stavudine; 923 in the test with zidovudine; 1 in the test with zalcitabine. Moreover, the “fold change of IC50” value in the test with abacavir turned out to be 4.2; with efavirenz, 1.6; in the test with didanosine it was 1.7.

For the test system “HIV-1 isolate 696 (reverse transcriptase changes: E6D V60I G196E T200I E203D, study 15)”, the “fold change of IC50” value with delavirdine was found to be 0.6; with tenofovir, 0.8; with nevirapine, 0.5; with stavudine, 1.2; with zidovudine, 0.9; in the test with zalcitabine, 1.2. The “fold change of IC50” value worked out at 1.1 with abacavir, 0.5 with efavirenz and 0.9 with didanosine.

In the case of “HIV-1 isolate 1205 (reverse transcriptase changes: R83K K103N I135V E169D Y181C T200A Q207E T215Y H221Y V245T, study 121)”, the “fold change of IC50” value with delavirdine is at least 250; in the test with tenofovir it was 2; with nevirapine, at least 400; with stavudine, 1.8; in the test with zidovudine, 38; in the test with zalcitabine it was 1.3. Further, the “fold change of IC50” value was found to be 2.9 with abacavir, 132 with efavirenz and 1.5 in the test with didanosine.

“HIV-1 isolate 1245 (reverse transcriptase changes: M41L Q85R V90I K103N I135V T139R Y181C M184V G196E T200A T215Y, study 121)”: the “fold change of IC50” value with delavirdine is at least 250; with tenofovir, 0.8; in the test with nevirapine, at least 400; with stavudine it was 0.9; in the test with zidovudine it was 1.8; in the test with zalcitabine it was 1. The “fold change of IC50” value with abacavir was 1.5; in the test with efavirenz it was 84; in the test with didanosine, 0.7.

As for “HIV-1 isolate 80 (reverse transcriptase changes: K102Q D123E R211K A272P K277R T286A P294S E297R, study 121)”, the “fold change of IC50” value in the test with delavirdine came to 0.3; with tenofovir it was 0.6; in the test with nevirapine, 0.6; with stavudine, 0.8; in the test with zidovudine it was 0.7; with zalcitabine, 0.8. Further, the “fold change of IC50” value with abacavir turned out to be 0.6; with efavirenz, 0.4; in the test with didanosine, 0.9.

In the case of “HIV-1 isolate 540 (reverse transcriptase changes: M41L K49R K101P D123E Q174K E203K Q207E L210W R211K T215Y V241L A272P T286A, study 12)”, the “fold change of IC50” value in the test with delavirdine is 24; with tenofovir, 3.6; with nevirapine, 435; with stavudine it was 2.3; with zidovudine it was 222; with zalcitabine, 1.1. For the same test system, the “fold change of IC50” value with abacavir was found to be 3.3; with efavirenz, 41; with didanosine, 1.3.

For the test system “HIV-1 isolate 1416 (reverse transcriptase changes: K32E V35I K49R A62V V75I F77L F116Y I135V Q151M S162C E169D Q207E R211K F214L A272P E291G I293V, study 121)”, the “fold change of IC50” value was 0.6 with delavirdine; 1.9 with tenofovir; 0.4 in the test with nevirapine; 11 with stavudine; 55 in the test with zidovudine; 17 with zalcitabine. The “fold change of IC50” value is 7.1 with abacavir, 0.4 in the test with efavirenz and 11 in the test with didanosine.

For “HIV-1 isolate 616 (reverse transcriptase changes: A98S K103N K122E M184V Q207E T215Y E297K, study 121)”, the “fold change of IC50” value was 11 in the test with delavirdine; 0.6 with tenofovir; 24 with nevirapine; 1.3 in the test with stavudine; 1.1 in the test with zidovudine; 2.2 in the test with zalcitabine. Moreover, the “fold change of IC50” value with abacavir stood at 3.7; with efavirenz it was 10; with didanosine it was 1.4.

Take “HIV-1 isolate 220 (reverse transcriptase changes: V35Q T39A D67N S68G K70R D123E I135T I142V K166R D177E G196E E203D T215F K219E A272P K277R L283I A288T E297K, study 121)”: the “fold change of IC50” value was found to be 3 in the test with delavirdine; 5.2 with tenofovir; 5.3 with nevirapine; 2.3 with stavudine; 464 with zidovudine; 1.4 with zalcitabine. The “fold change of IC50” value with abacavir is 3.8; in the test with efavirenz, 2.8; with didanosine, 1.5.

Take “HIV-1 isolate 352 (reverse transcriptase changes: T39A V60I D67N K70R K122E D123N Q174R D177E M184V I195M G196E E203K Q207G F214L K219Q A288S, study 15)”: the “fold change of IC50” value in the test with delavirdine is 0.7; with tenofovir, 1; with nevirapine, 0.4; in the test with stavudine it was 1.4; with zidovudine, 2.8; with zalcitabine, 1.4. Further, the “fold change of IC50” value in the test with abacavir came to 4.8; with efavirenz, 0.4; in the test with didanosine, 1.5.

These data come from the supplement of paper PMC3578754.
